This test has as its target recombinant gp160 (HIV (IIIB or MN/LAI)). As to the kind of experiment: SPR. To be noted: bispecific antibody.

For the substance HY-[Hx4]-7B2 (from UniProt P01857), the Kd (commonly the constant that tells how readily two partners part at equilibrium) was determined as 0.057 nM.
